# Laboratory results: PubChem BioAssay AID504761 (Drosophila RNAi Screening Center, 2011)
# Aim: 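Genome-wide fly cell screen for genes dengue virus requires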 (primary screen)
# Cell system: D.Mel-2 cells from Drosophila
# Knock-down reagent: long dsRNA against Drosophila genes
# Treatment: infection with dengue virus type 2; dose and infection time not stated
# Measurement: 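Per well on two replicate plates, imaging gave the percent of cells positive for viral envelope protein, ranked by infection, and a nuclear count of cells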
# Scale: infection score: higher = more virus-infected cells; cell count: higher = more cells in the well
# Rule for the call: 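Low infection ranks in the two replicates (chance level up to 0.065) followed by a retest with a 1.5-fold or larger significant decrease, p below 0.05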
# Calls: active = confirmed: knock-down lowers infection; inactive = not picked or not confirmed
# The screen tested about 22,000 reagents; this is a random part of those with a known target gene and a result. Over the whole deposit, 116 (0.52%) were called active. 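Calls depend on retest data that are not deposited; infection was ranked per plate without normalising between plates; the unit of the infection score is not given.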 Raw values are not corrected between plates. The numbers tell different reagents against one gene apart. A plus sign joins genes that one reagent is predicted to hit. The record does not give: the amount of reagent, the time to read-out.
Gene,reagent no.,"infection score, replicate 1","infection score, replicate 2","cell count, replicate 1","cell count, replicate 2",activity call
CG15760 (GeneID 32324),1,5.27,8.04,6609,6582,inactive
CG15760 (GeneID 32324),2,2.02,4.35,6298,6620,inactive
CG14095 (GeneID 40112),1,4.96,7.64,6204,6439,inactive
Sin3A (GeneID 36382),1,16.4,11,2318,3620,inactive
Ugt35C1 (GeneID 53507),1,3.7,3.1,6730,6652,inactive
Ugt35C1 (GeneID 53507),2,8.75,6.82,3155,1392,inactive
Mst84Dd (GeneID 40886),1,4.02,10.1,6410,1965,inactive
Mst84Dd (GeneID 40886),2,16.3,5.22,6139,6765,inactive
Cpr49Ac (GeneID 36348),1,8.49,9.41,6043,6217,inactive
sov (GeneID 31615),1,4.04,3.3,6117,6066,inactive
sov (GeneID 31615),2,3.54,4.76,5963,6299,inactive
CG8067 (GeneID 36552),1,12.1,6.64,5869,5890,inactive
Uggt (GeneID 40055),1,22.3,5.14,4655,6633,inactive
CG15425 (GeneID 33630),1,4.65,6.9,6384,6566,inactive
CG15425 (GeneID 33630),2,2.43,2.66,6712,6952,inactive
CG13623 (GeneID 42926),1,1.6,11,563,918,inactive
Rdl (GeneID 39054),1,11.5,22.1,3350,5151,inactive
Rdl (GeneID 39054),2,11.3,19.9,6849,6591,inactive
Spn77Bb + Spn77Bc,1,15.3,0.43,4459,697,inactive
Spn77Bb + Spn77Bc,2,12.3,10.8,4742,5038,inactive
ProtA (GeneID 34866),1,1.94,3.15,6120,6391,inactive
CG4611 (GeneID 38601),1,2.48,1.73,6119,6071,inactive
CG4611 (GeneID 38601),2,3.42,4.68,5821,5575,inactive
Adck1 (GeneID 37938),1,4.53,6.25,6314,6063,inactive
Snmp1 (GeneID 42514),1,17.1,5.6,5137,1197,inactive
Sod3 (GeneID 36232),1,26,24.2,5861,6664,inactive
Sod3 (GeneID 36232),2,14.7,5.06,5857,6081,inactive
Cmpk (GeneID 43165),1,1.44,4.65,6397,6254,inactive
CG18262 (GeneID 31745),1,1.54,2.1,6540,6856,inactive
CG18262 (GeneID 31745),2,6.56,12.9,6422,5856,inactive
CG14947 (GeneID 34628),1,4.08,2.08,6420,6862,inactive
CG11779 (GeneID 42298),1,13.5,3.73,5069,5901,inactive

7 successive entries from above, for reference:
Gene,reagent no.,"infection score, replicate 1","infection score, replicate 2","cell count, replicate 1","cell count, replicate 2",activity call
CG4611 (GeneID 38601),2,3.42,4.68,5821,5575,inactive
Adck1 (GeneID 37938),1,4.53,6.25,6314,6063,inactive
Snmp1 (GeneID 42514),1,17.1,5.6,5137,1197,inactive
Sod3 (GeneID 36232),1,26,24.2,5861,6664,inactive
Sod3 (GeneID 36232),2,14.7,5.06,5857,6081,inactive
Cmpk (GeneID 43165),1,1.44,4.65,6397,6254,inactive
CG18262 (GeneID 31745),1,1.54,2.1,6540,6856,inactive

Further records follow.
Gene,reagent no.,"infection score, replicate 1","infection score, replicate 2","cell count, replicate 1","cell count, replicate 2",activity call
Fcp1 (GeneID 37925),1,9.32,32.3,6547,5368,inactive
Fcp1 (GeneID 37925),2,5.12,7.31,5569,6337,inactive
CG5554 (GeneID 37775),1,4.35,5.52,6752,6471,inactive
CG5554 (GeneID 37775),2,4.82,11.5,6188,6028,inactive
SdhAL (GeneID 39348),1,12.8,28.3,5249,4940,inactive
SNRPG (GeneID 32636),1,2.99,3.94,4911,5227,inactive
Cap-D3 (GeneID 33778),1,4.03,3.33,6003,6392,inactive
Cap-D3 (GeneID 33778),2,5.28,,1515,46,inactive
Tollo (GeneID 44497),1,6.62,1.16,6435,6491,inactive
Ciao1 (GeneID 36655),1,14.1,11.2,6060,6681,inactive
cno (GeneID 40620),1,1.76,1.31,6260,6245,inactive
cno (GeneID 40620),2,2.79,13.3,6664,5669,inactive
cno (GeneID 40620),3,3.14,1.09,6372,6120,inactive
cno (GeneID 40620),4,18.1,33.5,5754,4971,inactive
vir-1 (GeneID 34652),1,3.43,1.99,6445,6819,inactive
vir-1 (GeneID 34652),2,1.38,1.71,6536,6616,inactive
vir-1 (GeneID 34652),3,8.85,4.28,5896,6148,inactive
CG17109 (GeneID 42730),1,3.1,0.53,6803,6613,inactive
CG17109 (GeneID 42730),2,7.44,4.49,6384,5908,inactive
CG11349 (GeneID 38552),1,1.38,1.32,6086,6235,inactive
CG11349 (GeneID 38552),2,10.3,7.16,6951,6943,inactive
CG14961 (GeneID 38414),1,2.54,1.75,6266,6052,inactive
Oseg4 (GeneID 38219),1,12.9,18.1,6003,6144,inactive
Ndf (GeneID 192507),1,11.3,13.2,6278,5527,inactive
niki (GeneID 42959),1,,,259,383,inactive
dpr17 (GeneID 41470),1,1.59,0.8,6282,5635,inactive
dpr17 (GeneID 41470),2,4.29,8.91,6685,6822,inactive
